Results of unrelated studies side by side (data: NIAID ChemDB).

Shared fields: target-level tests

An empty or dashed field is not shown. Lines come from different laboratories, so protocols vary. ICn: concentration for n% inhibition. a–b is a range or a potency band. Inhibition is in % at the dose shown (toxicity tests: loss of growth or viability).

structure,measure,protein,strain or isolate,dose,agent,value
CCCC(C(=O)O)P(=O)(O)O,IC50,DNA polymerase,-,-,Herpes simplex virus 2,160 µM
CC(C)C(=O)NC[C@H]1O[C@@H](n2cc(I)c(=O)[nH]c2=O)C[C@@H]1O,IC50,Thymidine kinase,-,-,Herpes simplex virus 1,0.19 µM
COc1ccc(OC)c2ccccc12,IC50,Protease,-,-,Herpes simplex virus 1,>100 µM
CC#Cc1cn([C@@H]2O[C@H](CO)[C@@H](O)[C@@H]2O)c(=O)[nH]c1=O,IC50,DNA polymerase,SC16,-,Herpes simplex virus 2,0.11 µM
CCOC(=O)P(=O)(O)OCC,IC50,DNA polymerase,-,-,Herpes simplex virus 1,>35 µM
O=P(O)(O)C(Cl)P(=O)(O)O,IC50,DNA polymerase,-,-,Herpes simplex virus 1,>100 µM
CC(=O)O[C@H]1C[C@H](n2ccc(=O)[nH]c2=O)O[C@@H]1CN=[N+]=[N-],IC50,Thymidine kinase,-,-,Herpes simplex virus 1,>2 µM
Cc1nc(-c2ccc(NC(=O)CNCc3ccccc3)cc2)cs1,IC50,Primase,-,-,Herpes simplex virus 1,1–100 µM
O=C(O)C(F)P(=O)(O)O,inhibition,DNA polymerase,-,100 µM,Herpes simplex virus 1,100%
Oc1cc2ccccc2cc1O,IC50,Protease,-,-,Herpes simplex virus 1,>100 µM
CC(F)(C(=O)O)P(=O)(O)O,inhibition,DNA polymerase,-,100 µM,Herpes simplex virus 1,0%
O=C(OCc1cccnc1)c1cccc(NC(=O)c2ccc(Cl)cc2O)c1,IC50,Primase,-,-,Herpes simplex virus,1.1 µM
O=C1C=CC(=O)c2c(O)ccc(O)c21,IC50,Protease,-,-,Herpes simplex virus 1,16.9 µM
Nc1ncnc2c1ccn2[C@@H]1O[C@H](COP(=O)(O)OP(=O)(O)OP(=O)(O)O)[C@@H](O)[C@@H]1O,Ki,DNA polymerase,-,-,Herpes simplex virus 2,5 µM
O=P(O)(O)OP(=O)(O)O,IC50,DNA polymerase,-,-,Herpes simplex virus 1,>500 µM
NC[C@H]1O[C@@H](n2ccc(=O)[nH]c2=O)C[C@@H]1O,IC50,Thymidine kinase,-,-,Herpes simplex virus 1,>5 µM
O=C(O)C(O)P(=O)(O)O,IC50,DNA polymerase,-,-,Herpes simplex virus 2,3 µM
O=C(O)CP(=O)(O)O,IC50,DNA polymerase,-,-,Herpes simplex virus 2,1.2 µM
CCCCC(=O)NC[C@H]1O[C@@H](n2cc(I)c(=O)[nH]c2=O)C[C@@H]1O,IC50,Thymidine kinase,-,-,Herpes simplex virus 1,0.15 µM
O=C(O)P(=O)(O)Oc1ccccc1,IC50,DNA polymerase,-,-,Herpes simplex virus 1,10 µM
O=P(O)(O)C(Br)(Br)P(=O)(O)O,IC50,DNA polymerase,-,-,Herpes simplex virus 2,>100 µM
CC(=O)NC[C@H]1O[C@@H](n2ccc(=O)[nH]c2=O)C[C@@H]1OC(C)=O,IC50,Thymidine kinase,-,-,Herpes simplex virus 1,5 µM